Record: PubChem BioAssay AID1224833 (University of Georgia, 2016)

- Purpose: 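Human genes whose knock-down alters rotavirus replication in monkey cells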 (primary screen)
- System: monkey MA104 kidney cells
- Knock-down reagent: siRNA pool against human genes, 50 nM
- Time to read-out: 48 h knock-down before infection; read 24 h after infection
- Conditions: infection with rotavirus strain RV3 two days after transfection; infectious dose for this stage not given
- Detection: 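z-score of rotavirus antigen signal per well, from a fluorescent immunoassay, relative to non-targeting control wells on the same plate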
- Scale: z-score vs non-targeting control: higher = more rotavirus replication than with non-targeting control
- Active means: In these data the active calls have z-score vs non-targeting control at about -1 or lower, or at about 1 or higher
- Meaning of the calls: active = z-score beyond 1 either way; inactive = z-score within 1 of zero
The deposit covers about 12,000 reagents; shown is a random part of them. About 5,600 of all reagents (46%) were called active. 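Active calls cover z-scores past 1 in both directions, so they include lowered as well as raised rotavirus replication.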 No sequences are given here.

| gene | z-score vs non-targeting control | Outcome |
| --- | --- | --- |
| DEFB116 | -1.73 | active |
| OR6B1 | -0.552 | inactive |
| TCP10L3 | 1.25 | active |
| SPACA3 | -1.76 | active |
| CCL18 | -1.61 | active |
| CIB3 | -0.46 | inactive |
| RFLNB | -0.962 | inactive |
| SDAD1 | -2.58 | active |
| COL9A2 | -0.716 | inactive |
| TRIAP1 | 0.889 | inactive |
| MAGEA6 | -2.68 | active |
| SNX12 | -0.343 | inactive |
| COA3 | 1.77 | active |
| TCN1 | -0.415 | inactive |
| SENP5 | 0.93 | inactive |
| FOXK1 | 0.82 | inactive |
| SLC10A4 | 1.36 | active |
| CPT1C | -1.14 | active |
| ANKRD13A | 0.147 | inactive |
| MALSU1 | -0.136 | inactive |
| ZNF451 | -3.98 | active |
| NFE2 | -1.42 | active |
| ASPSCR1 | 0.21 | inactive |
| PARVB | -0.543 | inactive |
| POFUT1 | -0.901 | inactive |
| CUTC | -1.73 | active |
| RASAL2 | 0.619 | inactive |
| ADGRD1 | 2.14 | active |
| PIGV | -0.985 | inactive |
| ARPC2 | -0.0889 | inactive |
| ZNF718 | -0.862 | inactive |
| KIF12 | -1.41 | active |
| C22orf15 | -0.571 | inactive |
| NAT9 | 5.32 | active |
| ASL | -2.03 | active |
| CD164L2 | 0.342 | inactive |
| SLC38A6 | -1.95 | active |
| TOR1A | 0.583 | inactive |
| METTL25B | 2.21 | active |
| ZNF76 | -0.306 | inactive |
| TSBP1 | -0.601 | inactive |
| CYP3A43 | 0.178 | inactive |
| SLC25A23 | -2.2 | active |
| GNAI2 | 0.862 | inactive |
| SPATA31A7 | 0.658 | inactive |
| NRDC | 1.26 | active |
| ISLR | 0.332 | inactive |
| SMPD4 | 0.87 | inactive |
| RANBP17 | -1.03 | active |
| PNLIPRP1 | -1.13 | active |
| PDE2A | 1.86 | active |
| ZKSCAN7 | 0.25 | inactive |
| LSM10 | 0.18 | inactive |
| WWC1 | 0.972 | inactive |
| COG5 | 0.265 | inactive |
| TMEM161A | -0.883 | inactive |
| CRABP2 | -1.28 | active |
| ADISSP | 1.21 | active |
| ODF1 | -0.831 | inactive |
| FANCB | -2.02 | active |
| RARRES1 | 0.847 | inactive |
| C16orf89 | -0.546 | inactive |
| CORO2B | -0.221 | inactive |
| ATP13A4 | 0.672 | inactive |
| LMX1B | -1.47 | active |
| P2RY12 | -1.13 | active |
| OR52H1 | -0.123 | inactive |
| PF4V1 | 0.764 | inactive |
| SLC25A36 | -1.18 | active |
| UTP18 | 1.41 | active |
| C14orf39 | 0.224 | inactive |
| PGM1 | -2.47 | active |
| EFCAB11 | 1.45 | active |
| RPL26 | -1.86 | active |
| OR13C9 | 0.276 | inactive |
